Data: patent US20110224133A1 (University of Southern California, priority 2008, published 2011)
Ends that are not written are not given here.

Tested on: various human lymphoma cells
Experiment: Cell death in virus-associated and non-virus-associated lymphoma cells
Conditions: 30 or 50 μM peptide overnight

Question: How did the “cell death, KSHV-infected PEL cells (BCBL1, BCP-1, BC-3)” value turn out when “RRRQRRKKRGY-G-FVNLLFLVVE (RRRQRRKKRGYGFVNLLFLVVE; not fully specified (some residues); also: retro-inverso D-amino acids) [K-α2]” was run?
Answer: Its value is “primarily targeted”.

Question: And the “cell death, KSHV/EBV-coinfected PEL cells (BC-1, JSC-1), EBV-immortalized Bob-B cells, non-virus-associated lymphoma cells (BJAB, K562, Jurkat-T)” value?
Answer: The value was “not”.
